Results of unrelated studies side by side (data: NIAID ChemDB).

Shared fields: tests in culture; organism: HIV-1

Blank or dashed fields: not listed here. a–b is a range or a potency band. Lines come from different laboratories, so protocols vary. ECn is the concentration giving n% inhibition of infection, replication or growth.

smiles,read by,strain,mutations,cells,read-out,value
CCCCCCCC/C=C/CCCCCCCC(=O)OCC(COP(=O)([O-])OC[C@@H]1CC[C@H](n2ccc(N)nc2=O)O1)OC(=O)CCCCCCC/C=C/CCCCCCCC,p24,LAV,,CEM-CCRF,EC50,0.52 µM
CC(C)OC(=O)OCCP(=O)(CO[C@H](C)Cn1cnc2c(N)ncnc21)OCOC(=O)OC(C)C.O=C(O)/C=C/C(=O)O,p24 / luminescence,NL4-3,,MT-4,EC50,0.3057 µM
Cc1ccnc2c1N(CN1CCN(C)CC1)C(=O)c1cccnc1N2C1CC1,cytopathic effect / XTT,,,CEM,EC50,0.44 µM
Cc1cn([C@H]2C[C@H](N=[N+]=[N-])[C@@H](CO)O2)c(=O)[nH]c1=O,β-galactosidase,A031-1,,MAGI + MAGI-CCR5,EC50,0.024 µM
Oc1ccc(-c2c3nc(c(-c4ccc(O)cc4)c4ccc([nH]4)c(-c4ccc(O)cc4)c4nc(c(-c5ccc(O)cc5)c5ccc2[nH]5)C=C4)C=C3)cc1,RT activity,LAV,,PBMC,EC50,0.6 µM
CN1CC=C(CC2(CC3=CCN(C)CC3)C(=O)N(c3ccccc3)c3ccccc32)CC1,cytopathic effect / XTT,IIIB,,MT-2,EC50,2.4 µM
CC(C)(C)C(=O)SCCOP(=O)(OCCSC(=O)C(C)(C)C)OCC1(Cc2c[nH]c3c(N)ncnc23)CCC1,,,,MT-4,EC50,26.5 µM
CCOC(=O)c1cc(O)c(O)c(O)c1,syncytia,IIIB,,CEM,EC50,1.5 µg/mL
Cc1nc(CC2(Cc3csc(C)n3)C(=O)N(c3ccccc3)c3ccccc32)cs1,cytopathic effect / XTT,IIIB,,MT-2,EC50,4 µM
Nc1ccn([C@H]2CC[C@@H](CO)O2)c(=O)n1,p24,LAV,,CEM-CCRF,EC50,0.05 µM
COc1ccc(-c2c[nH]c(=S)n2NC(=S)Nc2ccccc2C)cc1,syncytia / visual reading,IIIB,,C8166,EC50,3.77 µM
CCOC(=O)N1CCC(CC2C(=O)N(c3ccccc3)c3ccccc32)CC1,plaque count,RF,,MT-2,EC50,<11 µM
Nc1ncnc2c1ncn2CCOCP(=O)(O)O,,,,MT-4,EC50,>10 µM
Cc1cccc(C)c1OCC(=O)N[C@@H](Cc1ccccc1)[C@@H](O)C[C@H](Cc1ccccc1)NC(=O)[C@H](C(C)C)N1CCCNC1=O,,HXB2 WT,,MT-4,EC50,0.0115 µM
Cc1cn([C@H]2C[C@H](N=[N+]=[N-])[C@@H](COP(=O)(Oc3ccc(C#N)cc3)Oc3ccc(C#N)cc3)O2)c(=O)[nH]c1=O,ELISA,GB8)/1(IIIB,,JM,EC50,50 µM
C#C[C@]1(CO)O[C@@H](n2cnc3c(N)nc(F)nc32)C[C@@H]1O,p24 / luminescence,NL4-3,,MT-4,EC50,0.00098 µM
COc1ccc(S(=O)(=O)N(CC(C)C)C[C@@H](O)[C@H](Cc2ccccc2)NC(=O)O[C@H]2CO[C@H]3OCC[C@H]32)cc1,virus yield,IIIB,,H9(HIV-1(IIIB)) + H9,EC50,0.001 µM
NC(=O)c1ncn([C@@H]2O[C@H](CO)[C@@H](O)[C@H]2O)n1,cytopathic effect,IIIB,,MT-4,EC50,>20 µM
C/C1=C\C[C@]2(C)C(=O)C(O)=C([C@H](C)CO)[C@H]2C/C=C(\C)[C@@H](O)CC/C(C)=C/CC1,syncytia,,,HELA-T4 + HeLa,EC50,0.46 µg/mL
CCN[C@H]1CO[C@@H]2OC[C@H](OC(=O)N[C@@H](Cc3ccccc3)[C@H](O)CN(CC(C)C)S(=O)(=O)c3ccc4nc(NC5CC5)sc4c3)[C@@H]21,p24 / luminescence,NL4-3,,MT-4,EC50,0.0104 µM
Nc1ncnc2c1ncn2[C@@H]1O[C@H](CO)C=C[C@@H]1F,,,,,EC50,>100 µg/mL
Cc1ccc(-c2c[nH]c(=S)n2NC(=S)Nc2ccc(C)cc2C)cc1,syncytia / visual reading,IIIB,,C8166,EC50,11.75 µM
NC(=O)c1ncn([C@@H]2O[C@H](CO)[C@@H](O)[C@H]2O)n1,cytopathic effect / trypan blue,,,MT-4,EC50,>500 µM
CSC[C@H](NC(=O)COc1cccc2cnccc12)C(=O)N[C@@H](Cc1ccccc1)[C@H](O)C(=O)N1CSC(C)(C)[C@H]1C(=O)NC(C)(C)C,p24,Clinical isolates,,PBMC,EC50,0.01 µM
NC(N)=NCCC[C@H](N)C(=O)NC[C@@H]1OC(O[C@H]2[C@@H](O)[C@H](O[C@@H]3[C@@H](O)[C@H](NC(=O)[C@@H](N)CCCN=C(N)N)C[C@H](NC(=O)[C@@H](N)CCCN=C(N)N)[C@H]3O[C@H]3O[C@H](CNC(=O)[C@@H](N)CCCN=C(N)N)[C@@H](O)[C@H](O)[C@H]3NC(=O)[C@@H](N)CCCN=C(N)N)O[C@@H]2CO)[C@H](NC(=O)[C@@H](N)CCCN=C(N)N)[C@@H](O)[C@@H]1O,syncytia,CLADE C,,MT-2,EC50,0.5 µM
Cc1cn([C@H]2C[C@H](N=[N+]=[N-])[C@@H](COP(=O)(Oc3ccc(I)cc3)Oc3ccc(I)cc3)O2)c(=O)[nH]c1=O,ELISA,GB8)/1(IIIB,,JM,EC50,10 µM
CSc1ccn([C@H]2C[C@H](N=[N+]=[N-])[C@@H](CO)O2)c(=O)n1,RT activity,LAV-Bru,,CEM-C113 + CEM/C113,EC50,176 µM
S=C(Nc1cccc2ccccc12)Nn1c(-c2ccc(Cl)cc2)c[nH]c1=S,syncytia / visual reading,IIIB,,C8166,EC50,3.43 µM
CCCCCCCCCCCCCCCCCC(=O)N[C@@H](CO[C@@H]1O[C@H](CO)C(OS(=O)(=O)O)[C@H](OS(=O)(=O)O)[C@H]1NC(C)=O)C(=O)NCCCCCCCCCCCCCC,antigen,,,MT-4,EC50,30–100 µM
Nc1nc2c(ncn2COC(CO)CO)c(=O)[nH]1,cytopathic effect / trypan blue,,,MT-4,EC50,>500 µM
CCC(Cc1ccccc1)c1cc(O)c(C(c2cccc(NC(=O)[C@@H](C)NC(=O)OC(C)(C)C)c2)C2CC2)c(=O)o1,MTT / p24,IIIB,,MT-4,EC50,>3 µM
O=C(O)C(=O)CC(=O)c1ccc2c(ccc3ccccc32)c1,RT activity,LAI,,PBMC,EC90,>100 µM
CN1CC=C(CC2C(=O)N(c3ccccc3)c3ccccc32)CC1,cytopathic effect / XTT,IIIB,,MT-2,EC50,5.6 µM
Cc1c(Sc2ccccc2)n(COCCO)c(=O)[nH]c1=O,cytopathic effect / MTT,IIIB,,CEM(DAY 8) + CEM,EC50,8.3 µM
Cc1ccnc2c1NC(=O)c1cccnc1N2C1CC1,cytopathic effect / XTT,,,CEM,EC50,0.09 µM
CC(C)(C)C(=O)SCCOP(=O)(OCCSC(=O)C(C)(C)C)OCC1(Cc2cnc(N)[nH]c2=O)CCC1,,,,MT-4,EC50,61.3 µM
Cc1cn([C@H]2C[C@H](N=[N+]=[N-])[C@@H](COC(=O)c3cccnc3)O2)c(=O)[nH]c1=O,syncytia,IIIB,,CEM,EC50,0.4 µg/mL
Cc1ccc(NC(=S)Nn2c(-c3ccc(Br)cc3)c[nH]c2=S)c(C)c1,syncytia / visual reading,IIIB,,C8166,EC50,12.43 µM
CC(C)C1=C2[C@H]3CC[C@@H]4[C@@]5(C)CC[C@H](OC(=O)[C@H]6C[C@@H](C(=O)O)C6(C)C)C(C)(C)[C@@H]5CC[C@@]4(C)[C@]3(C)CC[C@@]2(c2nnc(-c3ccc(Cl)cc3)o2)CC1=O,p24 / ELISA,92HT599,,MT-2,EC50,<0.01 µM
Cc1cn([C@H]2C[C@H](N=[N+]=[N-])[C@@H](COP(=O)(Oc3ccc([N+](=O)[O-])cc3)Oc3ccc([N+](=O)[O-])cc3)O2)c(=O)[nH]c1=O,ELISA,GB8)/1(IIIB,,JM,EC50,10 µM
O=S(=O)(O)c1ccc(-c2c3nc(c(-c4ccc(S(=O)(=O)O)cc4)c4ccc([n-]4)c(-c4ccc(S(=O)(=O)O)cc4)c4nc(c(-c5ccc(S(=O)(=O)O)cc5)c5ccc2[n-]5)C=C4)C=C3)cc1.[Na+],RT activity,LAV,,PBMC,EC50,<1 µM
CN1CC=C(CC2(Cc3ccccc3)C(=O)N(c3ccccc3)c3ccccc32)CC1,cytopathic effect / XTT,IIIB,,MT-2,EC50,4.9 µM
Cc1ccc(N(C(=O)c2cccc([N+](=O)[O-])c2)C(=S)OCCN2C(=O)c3ccccc3C2=O)cc1,cytopathic effect / MTT,IIIB,,MT-4,EC50,0.02 µM
CC(C)(C)NC(=O)[C@@H]1C[C@@H]2CCCC[C@@H]2CN1C[C@@H](O)[C@H](Cc1ccccc1)NC(=O)[C@H](CC(N)=O)NC(=O)c1ccc2ccccc2n1,,HXB2 WT,,MT-4,EC50,0.011 µM
Cc1ccc(F)cc1CNC(=O)[C@H]1N(C(=O)[C@@H](O)[C@H](Cc2ccccc2)NC(=O)c2cccc(O)c2C)CSC1(C)C,cytopathic effect / XTT,IIIB,,CEM + CEM-SS,EC50,0.022 µg/mL
Cc1ccnc2c1N(CN1CCN(c3ccc(Cl)cc3)CC1)C(=O)c1cccnc1N2C1CC1,cytopathic effect / XTT,,,CEM,EC50,0.0159 µM
CC(C)C1=C2[C@H]3CC[C@@H]4[C@@]5(C)CC[C@H](OC(=O)[C@H]6C[C@@H](C(=O)O)C6(C)C)C(C)(C)[C@@H]5CC[C@@]4(C)[C@]3(C)CC[C@@]2(Cc2ncc(-c3ccc(Cl)cc3)n2CCN(C)C)CC1=O,p24 / ELISA,92HT599,,MT-2,EC50,0.01–0.05 µM
Nc1ncnc2c1ncn2[C@H]1C[C@@H](O)[C@@H](CO)O1,cytopathic effect / trypan blue,,,MT-4,EC50,>500 µM
COC(=O)c1cc(O)c(O)c(O)c1,syncytia,IIIB,,CEM,EC50,2 µg/mL
Nc1ncnc2c1ncn2CCOCP(O)(O)=S,,IIIB,,CEM,EC50,5.5 µM
Cc1ccccc1NC(=S)Nn1c(-c2ccc(Br)cc2)c[nH]c1=S,syncytia / visual reading,IIIB,,C8166,EC50,3.39 µM
CC(C)C1=C2[C@H]3CC[C@@H]4[C@@]5(C)CC[C@H](OC(=O)[C@H]6C[C@@H](C(=O)O)C6(C)C)C(C)(C)[C@@H]5CC[C@@]4(C)[C@]3(C)CC[C@@]2(c2ncc(-c3ccc(F)cc3)[nH]2)CC1=O,p24 / ELISA,92HT599,,MT-2,EC50,<0.01 µM
O=C(O)C(=O)CC(=O)c1cccn1Cc1ccccc1,p24,IIIB,,MT-4,EC50,<32 µM
Cc1nc(COc2ccc(C[C@H](NC(=O)O[C@H]3CO[C@H]4OCC[C@H]43)[C@H](O)CN(CC(C)C)S(=O)(=O)c3ccc4c(c3)OCO4)cc2)cs1,,HXB2 WT,,MT-4,EC50,0.000375 µM
Nc1ccn([C@H]2CC[C@@H](CO)O2)c(=O)n1,cytopathic effect / trypan blue,IIIB,,ATH8,EC50,0.2 µM
O=S(=O)(O)c1ccc(Cl)c(-c2c3nc(c(-c4c(Cl)ccc(S(=O)(=O)O)c4Cl)c4ccc([n-]4)c(-c4c(Cl)ccc(S(=O)(=O)O)c4Cl)c4ccc([n-]4)c(-c4c(Cl)ccc(S(=O)(=O)O)c4Cl)c4nc2C=C4)C=C3)c1Cl.[Na+],RT activity,LAV,,PBMC,EC50,<1 µM
CC(C)=CCN1Cc2cc(Cl)cc3[nH]c(=S)n(c23)C[C@@H]1C,,,RT-M41L T215Y A98G,MT-4,EC95,>3 µM
Cc1cn([C@H]2C=C[C@@H](CO)O2)c(=O)[nH]c1=O,β-galactosidase / absorbance,NL4-3,,MAGIC-5A,EC50,0.8 µM
CCC(Cc1ccccc1)c1cc(O)c(C(c2cccc(NC(=O)[C@H](Cc3cn(S(=O)(=O)c4ccc(C)cc4)cn3)NC(=O)OC(C)(C)C)c2)C2CC2)c(=O)o1,MTT / p24,IIIB,,MT-4,EC50,>3 µM
NCC(O)c1ccc(O)c(O)c1,syncytia,IIIB,,CEM,EC50,9 µg/mL
S=C(Nc1ccc(Cl)cc1)Nn1c(-c2ccc(Br)cc2)c[nH]c1=S,syncytia / visual reading,IIIB,,C8166,EC50,2.57 µM
CCN[C@H]1CO[C@@H]2OC[C@H](OC(=O)N[C@@H](Cc3cc(F)cc(F)c3)[C@H](O)CN(CC(C)C)S(=O)(=O)c3ccc4nc(NC5CC5)sc4c3)[C@@H]21,MTT / p24,NL4-3,,MT-4,EC50,0.0027 µM
CSc1ccc(OP(=O)(OC[C@H]2O[C@@H](n3cc(C)c(=O)[nH]c3=O)C[C@@H]2N=[N+]=[N-])Oc2ccc(SC)cc2)cc1,ELISA,GB8)/1(IIIB,,JM,EC50,15 µM
Cc1cn([C@H]2CC[C@@H](CO)O2)c(=O)[nH]c1=O,cytopathic effect / trypan blue,IIIB,,ATH8,EC50,101 µM
Cc1ccnc2c1NC(=O)c1cccnc1N2C1CC1,,RF,,MT-2,EC50,0.018 µM

The first 5 rows once more:

CCCCCCCC/C=C/CCCCCCCC(=O)OCC(COP(=O)([O-])OC[C@@H]1CC[C@H](n2ccc(N)nc2=O)O1)OC(=O)CCCCCCC/C=C/CCCCCCCC ; read by: p24 ; strain: LAV ; cells: CEM-CCRF ; read-out: EC50 ; value: 0.52 µM
CC(C)OC(=O)OCCP(=O)(CO[C@H](C)Cn1cnc2c(N)ncnc21)OCOC(=O)OC(C)C.O=C(O)/C=C/C(=O)O ; read by: p24 / luminescence ; strain: NL4-3 ; cells: MT-4 ; read-out: EC50 ; value: 0.3057 µM
Cc1ccnc2c1N(CN1CCN(C)CC1)C(=O)c1cccnc1N2C1CC1 ; read by: cytopathic effect / XTT ; cells: CEM ; read-out: EC50 ; value: 0.44 µM
Cc1cn([C@H]2C[C@H](N=[N+]=[N-])[C@@H](CO)O2)c(=O)[nH]c1=O ; read by: β-galactosidase ; strain: A031-1 ; cells: MAGI + MAGI-CCR5 ; read-out: EC50 ; value: 0.024 µM
Oc1ccc(-c2c3nc(c(-c4ccc(O)cc4)c4ccc([nH]4)c(-c4ccc(O)cc4)c4nc(c(-c5ccc(O)cc5)c5ccc2[nH]5)C=C4)C=C3)cc1 ; read by: RT activity ; strain: LAV ; cells: PBMC ; read-out: EC50 ; value: 0.6 µM